Measured values from several laboratories, pooled; numbers as filed in NIAID ChemDB.

All rows: whole-cell or culture tests; organism: Hepatitis C virus; read by: replicon; endpoint: EC50

Lines come from different laboratories, so protocols vary. ECn: concentration that inhibits the pathogen or its effect by n%. An empty or dashed field is not shown. a–b is a range or a potency band.

compound | cells | strain | value
CC(C)(O)C1Cc2cc3cc(-c4cc(O)cc(O)c4)oc3cc2O1 |  |  | 80.8 µM
C=CC1C[C@]1(NC(=O)C1C[C@@H](Oc2cc(-c3ccccc3)nc3ccccc23)CN1C(=O)[C@@H](NC(=O)[C@@H](NC(=O)[C@@H](CCC(=O)O)NC(=O)[C@H](CC(=O)O)NC(C)=O)C1CCCCC1)C(C)(C)C)C(=O)O | Huh7 |  | 1.9 µM
C=C[C@]1(CO)O[C@@H](n2ccc(=O)[nH]c2=O)[C@H](O)[C@@H]1O | Huh7 |  | 20 µM
Cc1cc(C(=O)Nc2ccc(-c3cc(N(C(=O)C4CCC(C)CC4)C(C)C)c(C(=O)O)s3)cc2)no1 |  | 1a | <0.5 µM
O=C(NC1CC1)c1ccc(F)c(Cn2c(C(=O)NS(=O)(=O)C3CC3)c(-c3ccc[nH]c3=O)c3c4occc4c(F)cc32)c1 |  |  | >1.5 µM
COc1cc(C(=O)N2[C@@H](c3nccs3)[C@@H](c3cnccn3)C[C@@]2(CCS)C(=O)O)ccc1C(C)(C)C | Huh7 | Genotype 1A | 10–100 µM
CCC(=O)N1c2ccccc2NC2=C(C(=O)CC(C)(C)C2)C1c1cc(Cl)cc(Cl)c1OC | Huh7 |  | 17.83 µM
Fc1cccc(-c2nc3cnn(Cc4ccc(-c5ccc(C(F)(F)F)cc5C(F)(F)F)cn4)cc-3n2)c1F | Huh-luc/neo-ET | genotype 1b | 0.036 µM
O=C(O)c1c(-c2ccc[nH]c2=O)c2c3sccc3ccc2n1Cc1ccccc1F |  |  | 0.5–1.5 µM
CCC(=O)N1c2ccccc2NC2=C(C(=O)CC(c3ccccc3OCc3ccccc3)C2)C1c1ccccc1 | Huh7 |  | 10.32 µM
COc1cc(C(=O)N2[C@@H](c3nccs3)[C@@H](c3cnccn3)C[C@@]2(Cc2cnc[nH]2)C(=O)O)ccc1C(C)(C)C | Huh7 | genotype 1b | 0.1–10 µM
COC(=O)N[C@H](C(=O)N1CCC[C@H]1c1ncc(-c2ccc(-c3ccc(-c4cnc([C@@H]5CCCN5C(=O)[C@@H](NC(=O)OC)C(C)C)[nH]4)cc3)cc2)[nH]1)C(C)C |  | 1b | 4.2 pM
CC1CCC(C(=O)N(c2cc(-c3ccc(NC(=O)c4c(F)cccc4F)cc3)sc2C(=O)O)C(C)C)CC1 |  | 1a | <0.5 µM
COc1c(CC=C(C)C)c(O)cc2oc(=O)c(-c3ccc(O)cc3O)cc12 |  | 1b | 15.5 µg/mL
CC(C)n1ncc2cc(Cn3c(C(=O)O)c(-c4ccc[nH]c4=O)c4c5occc5c(F)cc43)c(Cl)nc21 |  |  | 0.5–1.5 µM
COc1ncc(-c2cc(C[n+]3cc4[nH]c(-c5cccc(F)c5F)nc4cn3)on2)cn1 | Huh-luc/neo-ET | Genotype 1A | 50 µM
COc1cc(C(=O)N2[C@@H](c3nccs3)[C@@H](c3cnccn3)C[C@@]2(Cc2ccccc2)C(=O)O)ccc1C(C)(C)C | Huh7 | genotype 1b | 0.1–10 µM
CS(=O)(=O)NC(=O)c1c(-c2ccc[nH]c2=O)c2c3occc3c(F)cc2n1Cc1cc(C(N)=O)cnc1F |  |  | <0.5 µM
CNc1ncnc2c1ncn2[C@@H]1O[C@H](/C=C/P(=O)(O)O)C[C@H]1O |  |  | >100 µM
CC[C@]1(CO)O[C@@H](n2ccc(N)nc2=O)[C@H](O)[C@@H]1O | Huh7 |  | >20 µM
CNC(=O)c1c(-c2ccc(F)cc2)oc2cc(C3CCCN3S(C)(=O)=O)c(OC(C)C)cc12 | Huh7 |  | <1 µM
Cc1cc(C(=O)Nc2ccc(-c3cc(N(C(=O)C4CCC(C)CC4)C(C)C)c(C(=O)O)s3)cc2)n[nH]1 |  | 1b | <0.5 µM
CNC(=O)c1c(-c2ccc(F)cc2)oc2cc(N(C3CCC3)S(C)(=O)=O)c(OC(C)C)cc12 | Huh7 |  | <1 µM
O=C(O)c1c(-c2ccc[nH]c2=O)c2c3occc3c(F)cc2n1Cc1cc([N+](=O)[O-])ccc1F |  |  | <0.5 µM
CC(C)N(C(=O)C1CCC(C(F)(F)F)CC1)c1cc(-c2ccc(NC(=O)c3cscn3)cc2)sc1C(=O)O |  | 1b | <0.5 µM
Fc1cccc(-c2nc3cn[n+](Cc4cc(-c5ccc(C(F)(F)F)cc5C(F)(F)F)no4)cc3[nH]2)c1 | Huh-luc/neo-ET | genotype 1b | 50 µM
N#C[C@]1(CO)O[C@@H](n2ccc(N)nc2=O)[C@H](O)[C@@H]1O | Huh7 |  | <20 µM
O=C(O)c1c(-c2ccc[nH]c2=O)c2c3ccoc3ccc2n1Cc1ccccc1F |  |  | >1.5 µM
C=C[C@]1(CO)O[C@@H](n2ccc(N)nc2=O)[C@H](O)[C@@H]1O | Huh7 |  | <20 µM
CC1CCC(C(=O)N(c2cc(-c3ccccc3)sc2C(=O)O)C(C)C)C(O)C1 | Huh7 |  | 0.2 µM
CS(=O)(=O)NC(=O)c1c(-c2ccc[nH]c2=O)c2c3occc3ccc2n1Cc1ccccc1Cl |  |  | <0.5 µM
CNc1nc(N)nc2c1ncn2[C@@H]1O[C@H](/C=C/P(=O)(O)O)C[C@H]1O |  |  | >100 µM
CNC(=O)c1c(-c2ccc(F)cc2)oc2cc(N3CCOCC3)c(OCc3csc(C)n3)cc12 | Huh7 |  | <1 µM
CC1CCC(C(=O)N(c2cc(-c3ccc(NC(=O)c4cscn4)nc3)sc2C(=O)O)C(C)C)CC1 |  | 1a | <0.5 µM
Fc1cccc(-c2nc3cn[n+](Cc4cc(-c5ccc(C(F)(F)F)nc5)no4)cc3[nH]2)c1F | Huh-luc/neo-ET | genotype 1b | 0.313 µM
COc1cc(C(=O)N2[C@@H](c3nccs3)[C@@H](c3cnccn3)C[C@@]2(Cc2cscn2)C(=O)O)ccc1C(C)(C)C | Huh7 | genotype 1b | <0.1 µM
CNC(=O)c1c(-c2ccc(C)cc2)oc2ccc(Cl)cc12 | Huh7 |  | <10 µM
Nc1ncnc2c1nnn2[C@@H]1O[C@H](/C=C/P(=O)(O)O)[C@@H](O)[C@H]1O |  |  | >100 µM
CC(C)CCn1c(=O)c(C2=NS(=O)(=O)c3ccccc3N2)cc2c(O)cccc21 |  |  | 53.8 µM
COc1ccc(OC)c(C2Nc3ccc(C(=O)c4ccccc4)cc3NC3=C2C(=O)CCC3)c1 | Huh7 |  | 11.3 µM
CNC(=O)c1c(-c2ccc(F)cc2)oc2cc(N)c(OC)cc12 | Huh7 |  | <10 µM
CCc1cc(C(=O)Nc2ccc(-c3cc(N(C(=O)C4CCC(C)CC4)C(C)C)c(C(=O)O)s3)cc2)no1 |  | 1b | <0.5 µM
C[C@@]1(O)[C@H](O)[C@@H](CO)O[C@H]1n1ccc(=O)[nH]c1=O | Huh7 |  | 34.7 µM
CC#C[C@]1(CO)O[C@@H](n2ccc(N)nc2=O)[C@H](O)[C@@H]1O | Huh7 |  | >20 µM
CS(=O)(=O)NC(=O)c1c(-c2ccc[nH]c2=O)c2c3ccoc3ccc2n1Cc1cc(F)ccc1F |  |  | >1.5 µM
CNC(=O)c1c(-c2ccc(Cl)s2)oc2ccc(OC)cc12 | Huh7 |  | <10 µM
COc1cc(-c2cc(N(C(=O)C3CCC(C)CC3)C(C)C)c(C(=O)O)s2)ccc1NC(=O)c1cscn1 |  | 1a | <0.5 µM
CNC(=O)c1c(-c2ccc(F)cc2)oc2cc(-c3c(C)noc3C)c(OCc3nccs3)cc12 | Huh7 |  | <1 µM
CC1CCC(C(=O)N(c2cc(-c3ccc(NC(=O)c4cscn4)cc3)sc2C(=O)[O-])C(C)C)CC1.NC(N)=[NH+]CCCC(N)C=O |  | 1a | <0.5 µM
COc1cc(C(=O)N2[C@@H](c3nccs3)[C@@H](c3cnccn3)C[C@@]2(Cc2ccsn2)C(=O)O)ccc1C(C)(C)C | Huh7 | genotype 1b | <0.1 µM
CCCCOC(=O)[C@H](C)NP(=O)(/C=C/[C@@H]1C[C@@H](O)[C@H](n2cnc3c(N)ncnc32)O1)N[C@@H](C)C(=O)OCCCC |  |  | <10 µM
CC(C)CC(=O)N1c2ccccc2NC2=C(C(=O)CC(C)(C)C2)C1c1ccc(Cl)cc1 | Huh7 |  | 19.5 µM
O=C(O)c1c(-c2ccc[nH]c2=O)c2c3occc3c(F)cc2n1Cc1nc(C2CC2)ccc1F |  |  | <0.5 µM
CO[C@@H]1[C@H](O)[C@@H](/C=C/P(=O)(O)O)O[C@H]1n1cnc2c(=O)[nH]c(N)nc21 |  |  | >100 µM
CCCOc1ccc(-c2cc(C(C(=O)OCCCO)[n+]3cc4[nH]c(-c5cccc(F)c5F)nc4cn3)on2)c(C(F)(F)F)c1 | Huh-luc/neo-ET | Genotype 1A | 0.02371 µM

For reference, 7 entries again:

compound | cells | strain | value
CC(C)n1ncc2cc(Cn3c(C(=O)O)c(-c4ccc[nH]c4=O)c4c5occc5c(F)cc43)c(Cl)nc21 |  |  | 0.5–1.5 µM
Nc1ncnc2c1nnn2[C@@H]1O[C@H](/C=C/P(=O)(O)O)[C@@H](O)[C@H]1O |  |  | >100 µM
CCCOc1ccc(-c2cc(C(C(=O)OCCCO)[n+]3cc4[nH]c(-c5cccc(F)c5F)nc4cn3)on2)c(C(F)(F)F)c1 | Huh-luc/neo-ET | Genotype 1A | 0.02371 µM
CNC(=O)c1c(-c2ccc(F)cc2)oc2cc(N(C3CCC3)S(C)(=O)=O)c(OC(C)C)cc12 | Huh7 |  | <1 µM
C=C[C@]1(CO)O[C@@H](n2ccc(=O)[nH]c2=O)[C@H](O)[C@@H]1O | Huh7 |  | 20 µM
CNC(=O)c1c(-c2ccc(C)cc2)oc2ccc(Cl)cc12 | Huh7 |  | <10 µM
Fc1cccc(-c2nc3cn[n+](Cc4cc(-c5ccc(C(F)(F)F)cc5C(F)(F)F)no4)cc3[nH]2)c1 | Huh-luc/neo-ET | genotype 1b | 50 µM